# According to patent US20140315822A1:
# How the values were obtained:
# [1] = target: PDZ domain of the human MAST2 protein (human) (UniProt Q6P0Q8); assay: ITC, 298 K, MAST2-PDZ titrated with peptide
# [2] = target: PDZ domain of the human MAST2 protein (human) (UniProt Q6P0Q8); assay: ITC, ratio of KD against Neurovita1
# [3] = target: T1, PDZ domain of the human PTPN4 protein (human) (UniProt P29074); assay: method not restated in the table; ITC per paragraph 50
# T1 sequence: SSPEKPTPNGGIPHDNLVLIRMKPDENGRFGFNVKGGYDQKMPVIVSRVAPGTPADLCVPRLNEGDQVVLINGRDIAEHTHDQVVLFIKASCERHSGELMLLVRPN
substance,measurement,setting,value
441 (Neurovita 2) (peptide; modification not given),TΔS (entropy),[1],-808
same,n (stoechiometry),[1],1.07
same,ΔH (enthalpy),[1],-10200
same,gain in affinity as compared to Neurovita1,[2],10 fold
same,Kd,[3],554 µM
